Anti-infective test results gathered from many reports (values: NIAID ChemDB through PubChem).

All rows: growth or infection tests; species: Herpes simplex virus 2; method: cytopathic effect; read-out: EC50

a–b is a range or a potency band. An empty or dashed field is not shown. Rows are shuffled and stem from different studies. ECn is the concentration giving n% inhibition of infection, replication or growth.

compound | cells | strain | result
Nc1nc(N)c(Br)c(OCCOCP(=O)(O)O)n1 | E6SM | G | 700 µM
Cc1cc([C@@H]2C[C@H](O)[C@@H](CO)O2)c(F)cc1F | E6SM | LYONS | >400 µg/mL
Nc1ncnc2c1ncn2CC[C@H](O)CCO | E6SM | G | >400 µg/mL
C=CCc1nc(C)n2c(=O)[nH]c(NC(C)=O)nc12 | PRK | G | >200 µg/mL
O=c1c2ncn(COC(CO)CO)c2nc2[nH]c(-c3ccccc3)cn12 | E6SM | 196 | 0.02 µg/mL
Nc1ncnc2c1ncn2[C@H]1C[C@@H](O)[C@H](CO)O1 | VERO B | G | >1000 µM
N=C(N)CCNC(=O)c1c[nH]c(NC(=O)c2c[nH]c(NC(=O)/C=C/C(=O)Nc3c[nH]c(C(=O)Nc4c[nH]c(C(=O)NCCC(=N)N)c4)c3)c2)c1 | PRK |  | 10 µg/mL
Nc1ncnc2c1ncn2C[C@@H](CO)OCP(=O)(O)O | ESM | 196 | 0.07 µg/mL
Nc1cc(OC[C@H](CO)OCP(=O)(O)O)nc(N)n1 | E6SM | G | 17 µM
CC1(CO)CCC(Cn2nnc3c(Cl)ncnc32)C1(C)C | E6SM | G | >200 µg/mL
C=C(N=CC)c1nc(-c2ccc(OC)cc2)n(C2O[C@H](CO)[C@@H](O)[C@H](O)[C@H]2O)n1 | E6SM | G | >200 µg/mL
CC(C)CS[C@@H]1C=C[C@H](n2cnc3c(N)ncnc32)C1 | E6SM | G | >16 µg/mL
CN1C=CCC(C(=O)O[C@H]2C[C@H](n3cc(I)c(=O)[nH]c3=O)O[C@@H]2CO)=C1 | HFF |  | 1.2 µM
CC(N)c1cn([C@H]2C[C@H](O)[C@@H](CO)O2)c(=O)[nH]c1=O | HFF | MS | 1 µM
Cc1nc(CC(O)CO)c2nc[nH]c(=O)n12 | PRK | G | >400 µg/mL
CCOP(=O)(CCCN1CC(Cn2c(=O)n(C(=O)c3ccccc3)c(=O)c3ccccc32)N=N1)OCC | HEL |  | 17 µM
OC[C@H]1O[C@H](c2cc(F)c(F)cc2F)C[C@@H]1O | E6SM | LYONS | >400 µg/mL
O=C(CC1CCCCC1)N(O)c1ccc(Cl)cc1 | E6SM | G | 48 µg/mL
CO[C@H](CO)[C@@H](O)CCn1cc(C)c(=O)[nH]c1=O | E6SM | 196 | >400 µg/mL
OC[C@H]1O[C@H](c2cc(Cl)c(F)cc2F)C[C@@H]1O | E6SM | G | >400 µg/mL
C=C(N=CC)c1nc(-c2cccc(OC)c2)n(C2O[C@H](CO)[C@@H](O)[C@H](O)[C@H]2O)n1 | E6SM | G | 300 µg/mL
Nc1nc2c(ncn2COCCO)c(=O)[nH]1 | HEF |  | 0.53 µM
Nc1cc([C@H]2C[C@H](O)[C@@H](CO)O2)c(F)cc1F | E6SM | G | >400 µg/mL
Nc1nc(F)nc2c1ncn2[C@@H]1C=C(CO)[C@@H](O)[C@H]1O | E6SM | G | ≥40 µg/mL
C=C(N=CC)c1nc(-c2cccc(C)c2)n(C2O[C@H](CO)[C@@H](O)[C@H](O)[C@H]2O)n1 | E6SM | G | 300 µg/mL
Nc1nc2c(ncn2COCCO)c(=O)[nH]1 | HFF | V74262 (acyclovir-resistant) | >50 µg/mL
O=c1[nH]c(=O)n([C@H]2C[C@H](O)[C@@H](CO)O2)cc1/C=C/I | HFF |  | 4 µM
O=c1[nH]c(=O)n([C@H]2C[C@H](O)[C@@H](CO)O2)cc1I | PRK | 196 | 0.2 µg/mL
CC(=O)Nc1nc2c(CC(O)CO)nc(C)n2c(=O)[nH]1 | PRK | G | >400 µg/mL
Cc1cn([C@@H]2O[C@@H](CO)[C@H](O)[C@H]2O)c(=O)[nH]c1=O | VERO B | G | >1000 µM
CN1C=CCC(C(=O)O[C@H]2C[C@H](n3cc(/C=C/I)c(=O)[nH]c3=O)O[C@@H]2CO)=C1 | HFF |  | 0.08 µM
Nc1nc2c(ncn2COCCO)c(=O)[nH]1 | PRK | G | 0.07 µg/mL
O=c1[nH]c(=O)n([C@H]2C[C@H](O)[C@@H](COP(=O)(O)O)O2)cc1/C=C/c1cccc([N+](=O)[O-])c1 | PRK | G | >100 µg/mL
CC=NC(=N)c1nc(-c2ccccc2)n(COCCO)n1 | E6SM | G | >40 µg/mL
CCc1cn([C@H]2C[C@H](O)[C@@H](CO)O2)c(=O)[nH]c1=O | HFF | MS | >170 µM
C[C@@]1(O)[C@H](O)[C@@H](COP(=O)(O)OP(=O)(O)OP(=O)(O)O)O[C@H]1n1ccc2c(N)ncnc21 | VERO |  | >320 µM
CC1(CO)CCC(Cn2ccc(=O)[nH]c2=O)C1(C)C | E6SM | G | >400 µg/mL
N=C(N)CCNC(=O)c1c[nH]c(NC(=O)c2c[nH]c(NC(=O)CC(=O)Nc3c[nH]c(C(=O)Nc4c[nH]c(C(=O)NCCC(=N)N)c4)c3)c2)c1 | PRK |  | 4 µg/mL
CO[C@H](CO)[C@@H](O)CCn1cnc2c(N)ncnc21 | E6SM | G | >400 µg/mL
Nc1ncnc2c1ncn2C[C@@H](CO)OCP(=O)(O)O | PRK | 196 | 1–3 µg/mL
N#Cc1cc([C@H]2C[C@H](O)[C@@H](CO)O2)c(F)cc1F | E6SM | G | >400 µg/mL
CC1(CO)CCC(Cn2nnc3c(N)ncnc32)C1(C)C | E6SM | G | >100 µg/mL
N=C(N)CCNC(=O)c1c[nH]c(NC(=O)c2c[nH]c(NC(=O)c3c[nH]c(NC(=O)CCC(=O)Nc4c[nH]c(C(=O)Nc5c[nH]c(C(=O)Nc6c[nH]c(C(=O)NCCC(=N)N)c6)c5)c4)c3)c2)c1 | PRK |  | 4 µg/mL

For reference, 5 entries again:

{"compound": "N=C(N)CCNC(=O)c1c[nH]c(NC(=O)c2c[nH]c(NC(=O)c3c[nH]c(NC(=O)CCC(=O)Nc4c[nH]c(C(=O)Nc5c[nH]c(C(=O)Nc6c[nH]c(C(=O)NCCC(=N)N)c6)c5)c4)c3)c2)c1", "cells": "PRK", "result": "4 µg/mL"}
{"compound": "C=C(N=CC)c1nc(-c2ccc(OC)cc2)n(C2O[C@H](CO)[C@@H](O)[C@H](O)[C@H]2O)n1", "cells": "E6SM", "strain": "G", "result": ">200 µg/mL"}
{"compound": "N#Cc1cc([C@H]2C[C@H](O)[C@@H](CO)O2)c(F)cc1F", "cells": "E6SM", "strain": "G", "result": ">400 µg/mL"}
{"compound": "O=c1[nH]c(=O)n([C@H]2C[C@H](O)[C@@H](CO)O2)cc1I", "cells": "PRK", "strain": "196", "result": "0.2 µg/mL"}
{"compound": "N=C(N)CCNC(=O)c1c[nH]c(NC(=O)c2c[nH]c(NC(=O)/C=C/C(=O)Nc3c[nH]c(C(=O)Nc4c[nH]c(C(=O)NCCC(=N)N)c4)c3)c2)c1", "cells": "PRK", "result": "10 µg/mL"}